A mixed list of measured activities; the numbers were collected in NIAID ChemDB.

All rows: whole-cell or culture tests; organism: Candida lusitaniae

Rows are shuffled and stem from different studies. Blank or dashed fields: not listed here. ECn is the concentration giving n% inhibition of infection, replication or growth. MIC50, MIC90 and the like: level of inhibition, or share of isolates inhibited. Two numbers with a dash give a range or band.

compound | strain | method | read-out | value
CCCCCOc1ccc(-c2cc(-c3ccc(C(=O)N[C@H]4C[C@@H](O)[C@@H](O)NC(=O)[C@@H]5[C@@H](O)[C@@H](C)CN5C(=O)[C@H]([C@H](O)CC(N)=O)NC(=O)[C@H]([C@H](O)[C@@H](O)c5ccc(O)c(OS(=O)(=O)O)c5)NC(=O)[C@@H]5C[C@@H](O)CN5C(=O)[C@H]([C@@H](C)O)NC4=O)cc3)no2)cc1 | RC-301 | broth dilution | EC50 | 0.03 µg/mL
COC(=O)c1ccc(C[C@H](C(=O)OC)[C@@H](O)C(=O)OC)cc1 | SC5314 |  | MIC | 1 µg/mL
NN(Cc1ccccc1)CC(O)(Cn1cncn1)c1ccc(F)cc1F | ATCC 42720 |  | MIC80 | ≥0.015 µg/mL
C[C@@H]1CC(=O)N(CCc2ccccc2)C1=O | CCC 134-2000 | broth dilution / turbidity | MIC | 62.5 µg/mL
OC(Cn1cncn1)(Cn1cncn1)c1ccc(F)cc1F |  | agar | MIC | 12.5–25 µg/mL
CCC(C)CC(C)CCCCCCCCC(=O)N[C@H]1C[C@@H](O)[C@H](NCCN)NC(=O)[C@@H]2[C@@H](O)CCN2C(=O)[C@H]([C@H](O)CCN)NC(=O)[C@H]([C@H](O)[C@@H](O)c2ccc(O)cc2)NC(=O)[C@@H]2C[C@@H](O)CN2C(=O)[C@H]([C@@H](C)O)NC1=O | FMR 9474 | broth dilution | MIC | 0.25 µg/mL
CCCCCOc1ccc(-c2cc(-c3ccc(C(=O)N[C@H]4C[C@@H](O)[C@@H](O)NC(=O)[C@@H]5[C@@H](O)[C@@H](C)CN5C(=O)[C@H]([C@H](O)CC(N)=O)NC(=O)[C@H]([C@H](O)[C@@H](O)c5ccc(O)c(OS(=O)(=O)O)c5)NC(=O)[C@@H]5C[C@@H](O)CN5C(=O)[C@H]([C@@H](C)O)NC4=O)cc3)no2)cc1 |  | broth dilution | MIC50 | 0.06 µg/mL
C[C@@H]1CC(=O)N(CCCc2ccccc2)C1=O | CCC 134-2000 | broth dilution / turbidity | MIC | 125 µg/mL
C[C@@H](c1ncncc1F)[C@](O)(Cn1cncn1)c1ccc(F)cc1F |  | broth dilution | MIC50 | 0.008 µg/mL
CCCCCOc1ccc(-c2ccc(-c3ccc(C(=O)N[C@H]4C[C@@H](O)[C@@H](O)NC(=O)[C@@H]5[C@@H](O)[C@@H](C)CN5C(=O)[C@H]([C@H](C)O)NC(=O)[C@H]([C@H](O)[C@@H](O)c5ccc(O)cc5)NC(=O)[C@@H]5C[C@@H](O)CN5C(=O)[C@H]([C@H](C)O)NC4=O)cc3)cc2)cc1 |  |  | MIC50 | 0.015–1 µg/mL
CC1C(=O)N(CCCc2ccccc2)C(=O)C1C | CCC 134-2000 | broth dilution / turbidity | MIC | 250 µg/mL
N=c1oc2ccccc2c2csc(N)c12 | ATCC 200950 | broth dilution | MIC | 4 µg/mL
CCCCCCCC/C=C\CCCCCCCC(=O)N[C@H](C(=O)N1C[C@H](C)C[C@H]1C(=O)N[C@H](C(=O)N[C@@H](CCO)C(=O)N[C@@H](C)CO)C(C)C)[C@@H](C)O | ATCC34449 | broth dilution / visual reading | MIC | >32 µg/mL
CC1C(=O)N(CCc2ccccc2)C(=O)C1C | CCC 134-2000 | broth dilution / turbidity | MIC | 125 µg/mL
C[C@H]1[C@H](O)[C@@H](C)/C=C/C=C/C=C/C=C/C=C/C=C/C=C/[C@H](O[C@@H]2O[C@H](C)[C@@H](O)[C@H](N)[C@@H]2O)C[C@@H]2O[C@](O)(C[C@@H](O)C[C@@H](O)CC[C@H](O)[C@@H](O)C[C@@H](O)CC(=O)O[C@H]1C)C[C@H](O)[C@H]2C(=O)O | 66035 | broth dilution | MIC | 0.015 µg/mL
C[C@@H](n1ncc2ccccc21)[C@](O)(Cn1cncn1)c1ccc(F)cc1F | ATCC 42720 |  | MIC80 | 0.063 µM
COc1ccc(N2C(=O)CC(C)C2=O)cc1 | CCC 134-2000 | broth dilution / turbidity | MIC | 125 µg/mL
CN[C@H]1CC[C@@H](c2ccc(Cl)c(Cl)c2)c2ccccc21 | 2-367 | broth dilution | MIC90 | 8 µg/mL

Repeating the final 2 entries:

{"compound": "COc1ccc(N2C(=O)CC(C)C2=O)cc1", "strain": "CCC 134-2000", "method": "broth dilution / turbidity", "read-out": "MIC", "value": "125 µg/mL"}
{"compound": "CN[C@H]1CC[C@@H](c2ccc(Cl)c(Cl)c2)c2ccccc21", "strain": "2-367", "method": "broth dilution", "read-out": "MIC90", "value": "8 µg/mL"}